Assay results taken from PMC6299217, “Intrinsic Class D β-Lactamases of Clostridium difficile” (2018).

Tested on: CDD-1
Test: steady-state hydrolysis, spectrophotometric, Michaelis-Menten fit
Conditions: conditions as in cited earlier work on class D beta-lactamases

## CC1(C)S[C@@H]2[C@H](NC(=O)[C@H](N)c3ccccc3)C(=O)N2[C@H]1C(=O)O
  Km: 2700 nM
